Data published in article PMC7894572 (Chemmedchem, 2020).

Biological target: SARS‐CoV PL^pro (Severe acute respiratory syndrome coronavirus, UniProt P0C6X7)
Experiment: biochemical

## Cc1ccccc1C(=O)N[C@H](C)c1cccc2ccccc12 [Compound 2 a, 2‐Methyl‐N‐[(1R)‐naphth‐1‐ylethyl]benzamide, reference compound]
  IC50: 3.3 µM
